Measurements: ChEMBL document CHEMBL2321648, “Structure-based discovery of pyrazolobenzothiazine derivatives as inhibitors of hepatitis C virus replication” (J Med Chem, 2013)

Assay: Cytotoxicity against human HuH5.2 cells by MTS assay
Type: cell-based, Huh-5-2
Conditions: HuH5.2 cells
In short: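 Huh 5-2 replicon cells run in parallel with the antiviral assay: 72 h compound exposure at 37 °C, then 5% MTS in phenol red-free medium for 1.5 h. Absorbance at 498 nm expressed as % of untreated controls. CC50 taken from the dose-response curve, means ± SD of at least three independent experiments.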

| Compound | CC50 [µM] |
| --- | --- |
| CS(=O)(=O)Nc1ccc(NC(=O)c2nn(-c3ccc([N+](=O)[O-])cc3)c3c2NS(=O)(=O)c2ccccc2-3)cc1 | 55 |

Same assay, conditions: huh-5-2

| Compound | CC50 [µM] |
| --- | --- |
| CN1c2c(C(=O)Oc3ccc(NS(C)(=O)=O)cc3)nn(-c3cccc(F)c3)c2-c2ccccc2S1(=O)=O | > 185 |
| CN1c2c(C(=O)Nc3ccc(NS(C)(=O)=O)cc3)nn(-c3ccccc3N)c2-c2ccccc2S1(=O)=O | > 232 |
| CN1c2c(C(=O)Nc3ccc(NS(C)(=O)=O)cc3)nn(-c3ccc(N)cc3)c2-c2ccccc2S1(=O)=O | 25 |
| CN1c2c(C(=O)Nc3ccc(NS(C)(=O)=O)cc3)nn(-c3ccc(F)cc3)c2-c2ccccc2S1(=O)=O | > 231 |
| CN1c2c(C(=O)Nc3ccc(N)cc3)nn(-c3cccc(F)c3)c2-c2ccccc2S1(=O)=O | > 270 |
| CN1c2c(C(=O)Nc3ccc(NS(C)(=O)=O)cc3)nn(-c3cccc(N)c3)c2-c2ccccc2S1(=O)=O | 20 |
| CN1c2c(C(=O)Nc3ccc(NS(C)(=O)=O)cc3)nn(-c3ccccc3F)c2-c2ccccc2S1(=O)=O | > 231 |
| COC(=O)c1nn(-c2cccc(F)c2)c2c1N(C)S(=O)(=O)c1ccccc1-2 | > 323 |
| CN1c2c(C(=O)Nc3ccc(NS(C)(=O)=O)cc3)nn(-c3cccc(F)c3)c2-c2ccccc2S1(=O)=O | > 370 |

Conditions: human

| Compound | CC50 [µM] |
| --- | --- |
| CN1c2c(C(=O)Nc3ccc(NS(C)(=O)=O)cc3)nn(-c3cccc(F)c3)c2-c2ccccc2S1(=O)=O | > 180 |
